Source: PMC8753592, “Long-acting capsid inhibitor protects macaques from repeat SHIV challenges” (Nature, 2021)
“Also recorded” adds a separate entry of the source.

System: SHIV capsid (gag region)
Test: Plasma virus genotypic (capsid resistance) analysis
Format: in vivo, rhesus macaques
Details: nine viraemic treated animals, 24-week study
Procedure: Total RNA was extracted from 50-µl plasma aliquots obtained from each viraemic monkey using the MagMAX-96 Viral RNA Isolation kit (Life Technologies) in conjunction with the Thermo Scientific KingFisher Flex automated extraction platform and were eluted in 60 μl AVE buffer. The portion of gag encoding capsid in each sample was then individually amplified by RT–PCR using a SuperScript IV One-Step RT–PCR System (Life Technologies) according to the manufacturer’s recommended protocol. Amplification of the SHIV capsid-encoding region in each sample was performed using primers SIV-CA-F (5′-[…]-3′) and SIV-CA-R (5′-[…]-3′), and the products were subjected to population-level bulk sequencing at Elim Biopharmaceuticals using the same primer set. To identify codon changes, Sequencher version 4.9 (Gene Codes) was used to align DNA encoding sequences of the SHIV capsid for each sample with that of the parent virus obtained from each infected placebo-treated control animal. This provided a control for potential genetic drift that might have occurred during the 24-week efficacy study.

CC(C)(C#Cc1ccc(-c2ccc(Cl)c3c(NS(=O)(=O)C4CC4)nn(CC(F)F)c23)c([C@H](Cc2cc(F)cc(F)c2)NC(=O)Cn2nc(C(F)F)c3c2C(F)(F)[C@@H]2C[C@H]32)n1)S(C)(=O)=O [GS-CA1]
emergence of capsid variants associated with resistance: no study animal showed emergence of variants associated with GS-CA1 resistance; also recorded: no resistance mutations
